Consider 3 sequences from publication PMC5344390.

For at least one entry, the source does not settle the construct or the ends of the probe.

In this data set the target is MrkH-His6 (UniProt G3FT00). Put plainly: EMSA. The following applies: recombinant protein; probe letters rebuilt from the primers and the genome. For orientation: A gel shift assay detects complexes by their altered migration in electrophoresis.
With “ATGGCGGTTTGATGGCGTAAACATGATCGTTTATCTATTTTTTAGTTTAAAAACAATGGATTAATGATTTGTTTCTGAAAGGGGGGATCACATGGGCTGCCCTTGTTCAGGGAGAGGAATGCGCCTCATTCATGCTTTCACCATTCGTTGTGTGAATGGTTTGGTGCTGTTTTCACCACCGCAAAGGCAGATTCAGACTTATCGCGATGGCCTTCCGAGGGCTTTTTCTGCATGCTGTTGCGGTCACTTTCTCTCGCTCTGGCGTTAGGCTTGCTGCGCTGTAAACAACCACCCTCGCGTTTTCATCTATCAATGGCTGTTTATTAATAGTCGATGGTTATCTGTTATATAACTTAATGAAACGTGAACAAATGTATATTTGTCGGCGAATAAATAGCATTCTTTGACGCCGATAGCACCAGCGAACTTATATTTTTAGGTTCGTTACCTGACGCCTTAAATATTGCGGCTCCCGGTCAGTCGAAGATTCTATTAGCAGTGGCATAAATCAGCATCGCCTGATGTTTCTGGTTCTATGCGAATTCACAGTGTGCTCATTGATTCGTAATTCACTCTGACAAGGAAATGGCAATGAAAAAGGTTCTTCTCTCTGCAGCA (double strand) [mrkA regulatory region]”, the binding result is recorded as “binds”.
Then “ACTGGCCCAGACGATTATTTTCAATTTAATTAATAAGGATATTTCTGCCATCAGAATCGTCGATCTGCTGAATGCGCTCCGCCTTTCCCTGCTGCGCTGCCAGCAGCCGGTGCTAATGGTGAAAAGCGACATTGTCGGGCTGTGCAGAGAGTTGATAAACTTTGACAACGCTATGATTATTAGTGAGAAATCTCCGCTAACTCTTTTTTCATCTATCGTCCAGCGCGCCAAAGGCGTCAGCGAACTGCCGCCGCGAGGATTGCGCAAACAGCTTTCACCACGGGAGTGTCAGATCCTCGAACTGCTCATTGCCAACAATAATAATAAGCGTATTGCCGCCCTGCTCGGCATTGCTCATAAAACGGTTCATAGCCACCGCATCCATATCATGCAAAAACTGGGTATTGATAACTCCCGCACTATGAATCAGCGTATTGCCGCTCTCCATCAATGCTAAATGTTCTCCCGGTAAATCAGTAGCGGATAAAGCGTACTTATTCGCTGTTGATTTACATTTCCCGCCATTCCCATTAATCATCAGGTAGCCTATAATTAATGTATCCTCTGCCTATTGTCTGACTAACCTCGTGAAGAGGGATAATGAACACTAAAATATTCGAAGACAACATTTTA (double strand) [mrkJ regulatory region (wt)]”, with “binds”.
With “AGGCGCAGGAGTTGAACGAGGTCGCGGCTTCGCTTGAGGCGACGCCGATGCAGGTCGCCCTCGCCTGGCTGCTCCAGCGAGCGCCAAATATTCTGCTGATCCCCGGCACCTCCTCCCGCACGCACCTCGCGGAAAATATTGCCGCTGCCGAGCTGGTCCTGCCCGCGGAAGCGCTGCGCACCCTCGATAATATCGCCACCGCCGCGCGCCGCTGACCTGCCAGACAAAATGGAGGGAACCCTATCCCTCCTCAATATTTGCCTGGAAAAACCTCACCGCTACTGGCACTATAGATCCTACAAATGGGGCGTGATCGACGATCGTTCTCTCATTATCCCCGTTAATTAAACTTAAGTTTTTATCCTTCGACCGGTCTCCAGCTTGGAGGCCGTTGTCGTTTTTGTCATGACCAAAATTCGAAACTCTTGATTACAGGAAATACAATATCAAATTCCAAGTTTATACATATCAATCTGGCTGCAAAGATAGTCAATAACATCAAACGCTCATAAAAACATCTGATTAACCCAATCAGAATGTTGCTATTGCTATAAGAAAAATCAAACGCCTCACGACAACTATTTACAAGGGATGCATATGACAGAGGGAACGATAAAGACC (double strand) [mrkH (mrkHI) regulatory region]” the entry was “binds”.
